A mixed list of measured activities; the numbers were collected in NIAID ChemDB.

Common to all: whole-cell or culture tests; agent: Candida glabrata

MIC50, MIC90 and the like: level of inhibition, or share of isolates inhibited.

smiles,strain or isolate,setting,read-out,method,result
C[C@H](Cc1ccc(O)c(O)c1)[C@@H](C)Cc1ccc(O)c(O)c1,CCC 115-2000,-,MIC50,broth dilution,250 µg/mL
CN(C/C=C/C#CC(C)(C)C)Cc1cccc2ccccc12,ATCC MYA2950,biofilm,MIC100,broth dilution,>100 µg/mL
c1ccc([Se][Se]c2ccccc2)cc1,ATCC 2001,-,MFC,broth dilution,>64 µg/mL
COc1cc(O)c2c(c1)OC(c1ccc(O)cc1)CC2=O,ATCC 90030,-,MIC,broth dilution,630 µg/mL
O=C(O)c1cccc(-n2nnnc2SCc2cc([N+](=O)[O-])cc([N+](=O)[O-])c2)c1,20/I,24 h,EC80,broth dilution,>500 µM
C[C@@H]1[C@H](O)[C@@H](C)/C=C/C=C/CC/C=C/C=C/C=C/C=C/C(O[C@H]2O[C@H](C)[C@@H](O)[C@H](N)[C@@H]2O)CC2O[C@](O)(CC(O)C(O)CCC(O)CC(O)CC(O)CC(=O)O[C@H]1C)CC(O)C2C(=O)O,MTCC 3019,-,MIC,-,150 µg/mL
O=Cc1cc(O)ccc1O,PYCC 2418,-,EC50,broth dilution / turbidity,1.16 µM
COC(CCCCCCCCCCCCCC[C@@H](OC1O[C@@H](CO)[C@@H](O)[C@@H](O)[C@@H]1O)[C@@H](C)N)CCCCCCCC1NCCc2cc(O)c(O)cc21,-,-,MIC,-,30 µg/mL
O=[N+]([O-])c1cc(C[Se]c2nnnn2C2CCCCC2)cc([N+](=O)[O-])c1,20/I,48 h,EC80,broth dilution,>500 µM
CCC(C)n1ncn(-c2ccc(N3CCN(c4ccc(OC[C@H]5CO[C@](Cn6cncn6)(c6ccc(Cl)cc6Cl)O5)cc4)CC3)cc2)c1=O,77 isolates,-,MIC50,-,1 µg/mL
O=Cc1cccc(O)c1O,PYCC 2418,-,EC50,broth dilution / turbidity,<0.01 µM
CNC(=S)N/N=C(\C)c1ccc(-n2ccnc2)cc1,ATCC 2001,-,MIC50,broth dilution,>915 µM
O=[N+]([O-])c1cc(CSc2nnnn2Cc2ccccc2)cc([N+](=O)[O-])c1,20/I,24 h,EC80,broth dilution,>500 µM
CC1=CC2C(N)=NC(N)=NC2C=C1c1ccc(N(C)C)c(C#N)c1,ATCC 2001,-,MIC,broth dilution,2 µg/mL
O=C(O)/C=C/c1ccccc1,PYCC 2418,-,EC50,broth dilution / turbidity,0.09 µM
CCCCCCCCOc1ccc(-c2ccc(C(=O)NC3CC(NCCN)CNC(=O)[C@@H]4[C@@H](O)[C@@H](C)CN4C(=O)[C@@H](CO)NC(=O)[C@H]([C@H](O)Cc4ccccc4)NC(=O)[C@@H]4C[C@@H](O)CN4C(=O)[C@H]([C@@H](C)O)NC3=O)cc2)cc1,NEM_7118432,-,MIC,resazurin,0.5 µg/mL
C[C@@H](c1ncncc1F)[C@](O)(Cn1cncn1)c1ccc(F)cc1F,Clinical isolates,-,MIC,broth dilution,0.12 µg/mL
C[C@@H](c1ncncc1F)[C@](O)(Cn1cncn1)c1ccc(F)cc1F,77 isolates,-,MIC50,-,0.5 µg/mL
O=[N+]([O-])c1cc(C[Se]c2nnnn2Cc2ccccc2)cc([N+](=O)[O-])c1,20/I,24 h,EC80,broth dilution,>500 µM
COc1cnc2c3c(nccc13)C1SC=CC1C2=O,-,-,MIC80,-,>64 µg/mL
CNC(=S)N/N=C/c1ccc(-n2ccnc2)cc1,ATCC 2001,-,MIC50,broth dilution,>964 µM
C[C@@H]1[C@H](O)[C@@H](C)/C=C/C=C/CC/C=C/C=C/C=C/C=C/C(O[C@H]2O[C@H](C)[C@@H](O)[C@H](N)[C@@H]2O)CC2O[C@](O)(CC(O)C(O)CCC(O)CC(O)CC(O)CC(=O)O[C@H]1C)CC(O)C2C(=O)O,Clinical isolates,-,MIC,broth dilution,1 µg/mL
C=CC(C)(O)CCCC=C(C)C,-,-,MIC90,-,0.025–0.031 µg/mL
C[C@@H]1[C@H](O)[C@@H](C)/C=C/C=C/CC/C=C/C=C/C=C/C=C/C(O[C@H]2O[C@H](C)[C@@H](O)[C@H](N)[C@@H]2O)CC2O[C@](O)(CC(O)C(O)CCC(O)CC(O)CC(O)CC(=O)O[C@H]1C)CC(O)C2C(=O)O,Clinical isolate,-,MIC,broth dilution,3.125 µg/mL
O=C(N/N=C\n1ccnc1)c1ccc([N+](=O)[O-])cc1,ATCC 2001,-,MIC50,broth dilution,<0.9 µM
C[C@H](c1ncncc1F)[C@](O)(Cn1cncn1)c1ccc(F)cc1F,-,-,MIC80,broth dilution,0.18 µM

A second listing of 2 rows from above:

smiles	strain or isolate	setting	read-out	method	result
C=CC(C)(O)CCCC=C(C)C	-	-	MIC90	-	0.025–0.031 µg/mL
CCCCCCCCOc1ccc(-c2ccc(C(=O)NC3CC(NCCN)CNC(=O)[C@@H]4[C@@H](O)[C@@H](C)CN4C(=O)[C@@H](CO)NC(=O)[C@H]([C@H](O)Cc4ccccc4)NC(=O)[C@@H]4C[C@@H](O)CN4C(=O)[C@H]([C@@H](C)O)NC3=O)cc2)cc1	NEM_7118432	-	MIC	resazurin	0.5 µg/mL

Conditions beyond the fields shown may differ between rows. ECn is the concentration giving n% inhibition of infection, replication or growth. Two numbers with a dash give a range or band. Blank or dashed fields: not listed here.